The values that follow come from patent US9328326B2, “Method for isolating cells” (MERCK PATENT GMBH, priority 2006, dated 2016).

The data set is described as follows: ability of detergents, buffers, solvents and additives to dissolve food matrices (matrix lysis development).

Molecules are shown by their SMILES. Entries after “also recorded” stand apart in the source; their conditions may differ.

As for `CCCCCCCCCCCCOS(=O)(=O)[O-].[Na+]` [1% SDS, sodium dodecyl sulfate], the “lysis of food matrices” value is given as “good performance; also recorded: worked well” (in combination with 8 M Urea or 8 M Guanidine, listed as SDS, sulfate) and “insufficient lysis” (used individually).
With `NC(N)=O` [8 M Urea, urea], the “performance in lysing food matrices” value reads like this: (combined with detergents) “even better performance”; (used alone) “good performance”.
